Compound potency records, mixed from different reports. Data source: NIAID ChemDB in PubChem.

Shared fields: host cell toxicity; read-out: CC50

CCn: concentration that lowers growth or viability of the cells by n%.

compound	cells	read by	value
C=CCO/N=C/c1ccc(OCCC2CCN(c3ccc(Cl)nn3)CC2)c(C)c1	MRC-5	visual reading	>1 µg/mL
CCOC(=O)C1=C(CN2CC(F)(F)[C@@H]3[C@H]2CON3C[C@H](OC)C(C)(C)C(=O)O)NC(c2nccs2)=N[C@H]1c1cccc(F)c1Cl	HepG2.2.15	WST / absorbance	100 µM
COc1ccc2nc(Cl)c(/C=C/C(=O)c3cc4ccccc4o3)cc2c1	CEM	MTS	10.8 µM
CC(=O)Nc1ccc(Nc2ncnc3c2cnn3-c2ccc(C)cc2C)cc1	HUH 9B		>50 µM
O=C1NC(=O)/C(=C/c2ccc(-c3ccc(C#Cc4ccccc4)cc3)cc2)S1	HepG2-NTCP	MTS	>10 µM
CCCCS(=O)(=O)Nc1ccc2[nH]c(C(=O)N3CCCCCC3)c(C)c2c1	VERO	resazurin	130 µM
CC(=O)OCC(C)(O)C(C)C(C)C(OC(C)=O)C1OC12C(O)CC1C3CCC4CC(=O)CCC4C3CCC12COC(C)=O	HT-29	MTT	>50 µg/mL
Nc1nc(-c2ccc(NC(=O)CN(Cc3ccccc3)C(=O)c3ccccn3)cc2)cs1	HS68		>36 µM
N#CCO/N=C/c1ccc(OCCC2CCN(c3ccc(Cl)nn3)CC2)cc1	MRC-5	visual reading	0.6 µg/mL
CC(=O)O[C@H]1C[C@H](n2cc(C)c(=O)[nH]c2=O)O[C@@H]1COP(=O)(OC[C@H]1O[C@@H](n2cc(C)c(=O)[nH]c2=O)C[C@@H]1OC(C)=O)OCC(Cl)(Cl)Cl	JM		>1000 µM
CCOC(=O)CCCCOc1ccccc1C=O	BJ		>20 µM
CCN(CC)C(=O)OCC1CN(C(=O)c2ccc(OC)cc2OC)CCN1C(=O)c1ccc(OC)cc1OC	MDM	neutral red	>100 µM
CCOC(=O)CCCCCOc1cccc(CN(C(=O)c2ccc(-c3cccc(C(C)=O)c3)cc2)C(C)C)c1	HEK 293		>20 µM
Cc1cn(C2C[C@H](F)[C@@H](COP(=O)(N[C@@H](C)C(=O)OC(C)C)Oc3ccccc3)O2)c(=O)[nH]c1=O	CEM/TK-	cell count	>250 µM
CCCCS(=O)(=O)Nc1ccc2[nH]c(C(=O)NCCNC(=O)c3ccc([N+](=O)[O-])o3)c(C)c2c1	VERO	resazurin	100 µM
COC(=O)C1=C(CN2CC(F)(F)[C@@H]3[C@H]2CON3CC[C@@](C)(O)C(=O)O)NC(c2nccs2)=N[C@H]1c1ccc(F)c(F)c1Cl	HepG2.2.15	WST / absorbance	>100 µM
CCCCc1ccc(Nc2ncnc3c2cnn3-c2ccccc2C)cc1	HUH 9B		27 µM
O=C(Nc1ccc(-c2ccc3ncnc(Nc4ccc(N5CCOCC5)cc4)c3c2)cc1)OCc1ccccc1	HUH 9B		>25 µM
C[C@@]1(O)[C@H](O)[C@@H](CO)O[C@H]1n1cc(C#CCN)c2c(N)ncnc21	ET		>50 µM
c1coc(-c2ccc3ncnc(Nc4ccc(N5CCOCC5)cc4)c3c2)c1	HUH 9B		1–10 µM
CC(=O)OCC12CCC3C(CCC4CC(O)CCC43C)C1CC(O)C21OC1C(OC(C)=O)C(C)C(C)C(C)(C)OC(C)=O	HT-29	MTT	>50 µg/mL
CCN(CC)C(=O)OCC1CN(Cc2noc(=O)[nH]2)CCN1C(=O)c1cc(OC)c(OC)c(OC)c1	MDM	neutral red	>100 µM
CCOC(=O)C1=C(CN2CC(F)(F)[C@@H]3[C@H]2CON3CC[C@@](C)(OC)C(=O)O)NC(c2nccs2)=N[C@H]1c1cccc(F)c1C	HepG2.2.15	WST / absorbance	>100 µM
CCCCS(=O)(=O)Nc1ccc2[nH]c(C(=O)OC(C)C)c(C)c2c1	VERO	resazurin	71 µM
O=C1NC(=O)/C(=C/c2ccc(-c3ccccc3)cc2)S1	HepG2-NTCP	MTS	23.9 µM
CCOC(=O)CCCCCOc1cccc(CN(C(=O)c2ccc(-c3ccc4[nH]ccc4c3)cc2)C(C)C)c1	RAJI		>20 µM
Cc1c(C(=O)NCc2ccccc2)[nH]c2ccc(NS(=O)(=O)CCCCF)cc12	VERO	resazurin	>120 µM
CCO/N=C/c1cc(C)c(OCCC2CCN(c3ccc(Cl)nn3)CC2)c(C)c1	MRC-5	visual reading	>1 µg/mL
CC1(C)C2CC=C3C(CC[C@@]4(C)C5C[C@](C)(C(=O)O)CC[C@]5(C)CC[C@]34C)[C@@]2(C)CC[C@H]1O	A2780		20 µM
CCN(CC)C(=O)OCC1CN(C(c2ccccc2)c2ccccn2)CCN1C(=O)c1cc(OC)c(OC)c(OC)c1	MDM	neutral red	≥100 µM
Nc1nc2c(ncn2C=C2CC2(F)CO)c(=O)[nH]1	Akata		>209 µM
COc1cc(Nc2ncnc3ccc(I)cc23)ccc1N1CCOCC1	HUH 9B		10–25 µM
CN(C)c1cccc2c(S(=O)(=O)Nc3ccc(NC(=O)C(C)(C)C)cc3)cccc12	Human embryonic lung fibroblasts		65.5 µM
CCN(CC)C(=O)OCC1CN(C(=O)c2cc(OC)c(OC)c(OC)c2)CCN1C(=O)c1cc(OC)c(OC)c(OC)c1	MDM	neutral red	>1000 µM
OC[C@H]1O[C@@H](n2ccc3c(-c4cc5ccccc5o4)nc(Cl)nc32)C(O)C1O	CEM-DNR leukemia cells	MTT	9.96 µM
O=C1NC(=O)/C(=C/c2ccc(-c3ccc(-c4ccccc4)cc3)cc2)S1	HepG2-NTCP	MTS	>10 µM
CCN(CC)C(=O)OCC1CN(C(=O)c2ccc(OC)c(OC)c2)CCN1C(=O)c1ccc(OC)c(OC)c1	MDM	neutral red	>100 µM
Nc1nc(-c2ccc(NC(=O)CCNCC3CCCCC3)cc2)cs1	HS68		<6 µM
COc1ccccc1CNC(=O)C1=Cc2ccncc2CC1	MA-104		<282 µM
CCOC(=O)C1=C(CN2CC(F)(F)[C@@H]3[C@H]2CON3CC(F)(F)C(C)(C)C(=O)O)NC(c2nccs2)=N[C@H]1c1cccc(F)c1C	HepG2.2.15	WST / absorbance	>50 µM
Cc1ccc(-n2ncc3c(NC(=O)Nc4ccc(OCc5ccccn5)cc4)ncnc32)c(C)c1	HUH 9B		18 µM
CCCCNc1nccc(-c2c(-c3ccc(F)cc3)nn3c(NCCOC)cccc23)n1	VERO 76		33 µM
Cc1ccc(-n2ncc3c(Nc4ccc(N5CCOCC5)c(F)c4)ncnc32)c(C)c1	HUH 9B		>50 µM
Fc1ccc(-c2nn3c(N4CCCC4)cccc3c2-c2ccnc(NC3CCCC3)n2)cc1	VERO 76		>40 µM
Nc1nc(-c2ccc(NC(=O)NCc3ccccc3)cc2)cs1	HS68		<45 µM
OC[C@H]1O[C@@H](n2ccc3c(-c4cc5ccccc5o4)nc(F)nc32)C(O)C1O	BJ fibroblasts	MTT	>150 µM
CO[C@H]1C[C@H](n2cc(C)c(=O)[nH]c2=O)O[C@@H]1CO	JM		>1000 µM
COc1ccc2nc(Cl)c(/C=C/C(=O)c3ccc(C)s3)cc2c1	VERO	MTS	45.9 µM
CO/N=C/c1c(C)cc(OCCC2CCN(c3ccc(C)nn3)CC2)cc1C	MRC-5	neutral red	>0.1 µg/mL
Br.CN1C=CN(c2cccc(N3C=CN(C)C3)n2)C1	HT-29	sulforhodamine / absorbance	>30 µM
CCO/N=C/c1ccc(OCCC2CCN(c3ccc(C)nn3)CC2)cc1O	MRC-5	neutral red	>0.1 µg/mL
Cc1cc(NCCN2CCOCC2)c2ccc3c(ccc4c(NCCN5CCOCC5)cc(C)nc43)c2n1	Macrophage line RAW 264.7	MTT	0.00984 µM
COc1ccc(Cl)cc1Nc1ncnc2c1cnn2-c1cccc(Cl)c1	HUH 9B		16 µM
Cc1ccc2nc(Cl)c(/C=C/C(=O)c3c4ccccc4cc4ccccc34)cc2c1	PBMC	MTS	83 µM
Brc1ccc2ncnc(Nc3ccc(N4CCOCC4)cc3)c2c1	HUH 9B		>25 µM
OC[C@H]1O[C@@H](n2ccc3c(-c4cccs4)nc(F)nc32)C(O)C1O	MRC-5 fibroblast	MTT	>150 µM
CN(C)c1cccc2c(S(=O)(=O)Nc3ccc(NC(=O)C(C)(C)CO)cc3)cccc12	Human embryonic lung fibroblasts		93 µM
Ic1ccc2ncnc(Nc3ccc(N4CCOCC4)cc3)c2c1	HUH 9B		10–25 µM
CO[C@H]1C[C@H](n2cc(C)c(=O)[nH]c2=O)O[C@@H]1COP(=O)(OC[C@H]1O[C@@H](n2cc(C)c(=O)[nH]c2=O)C[C@@H]1OC)Oc1ccccc1	JM		>500 µM
Nc1ncnc2c1ncn2C=C1CC1(F)CO	Akata		>199 µM
CCCCNc1nccc(-c2c(-c3ccc(F)cc3)nn3c(NC)cccc23)n1	VERO 76		40 µM
CCN(CC)C(=O)OCC1CN(C(=O)c2cc(OC)c(O)c(OC)c2)CCN1C(=O)c1cc(OC)c(O)c(OC)c1	MDM	neutral red	>100 µM
CC(=O)N1c2ccccc2NC2=C(C(=O)CC(C)(C)C2)C1c1ccc(Cl)cc1Cl	MT4-LTR-LUC		>32 µM
Cc1ccc(-n2ncc3c(NC(=O)Nc4ccc(Cl)cc4)ncnc32)c(C)c1	HUH 9B		42 µM
Cc1ccc2nc(Cl)c(/C=C/C(=O)c3ccc(C)s3)cc2c1	CEM	MTS	4.4 µM
Cc1ccc(-n2ncc3c(Nc4ccc(OC(F)(F)F)cc4)ncnc32)c(C)c1	HUH 9B		22 µM
Nc1nc2c(ncn2COCCO)c(=O)[nH]1	MA-104		>3000 µM
CC(C)(CF)C(=O)Nc1ccc(NS(=O)(=O)c2cccc3ccccc23)cc1	Human embryonic lung fibroblasts		62.5 µM
NC(=O)CCNC(=O)c1ccccc1SCc1ccc([N+](=O)[O-])o1	Macrophage	XTT	>50 µM
CC(C)(CCl)C(=O)Nc1ccc(NS(=O)(=O)c2cccc3ccccc23)cc1	Human embryonic lung fibroblasts		33.3 µM
CCCCS(=O)(=O)Nc1ccc2[nH]c(CO)c(C)c2c1	VERO	resazurin	>170 µM
Fc1ccc(-c2nn3c(NN4CCOCC4)cccc3c2-c2ccnc(NC3CCCC3)n2)cc1	VERO 76		>40 µM
CCO/N=C/c1ccc(OCCC2CCN(c3nnc(C(F)(F)F)s3)CC2)cc1	MRC-5	neutral red	>0.5 µg/mL
CCN(CC)C(=O)OCC1CN(C(=O)c2cc(OC)c(O)c(OC)c2)CCN1C(=O)c1cc(OC)c(OC)c(OC)c1	MDM	neutral red	>100 µM
CC#Cc1cn([C@@H]2O[C@H](CO)[C@@H](O)[C@@]2(C)O)c2ncnc(N)c12	ET		>50 µM
CCCCNc1nccc(-c2c(-c3ccc(F)cc3)nn3c(NC4CC4)cccc23)n1	VERO 76		>40 µM
CCO/N=C/c1cccc(OCCC2CCN(c3ccc(Cl)nn3)CC2)c1	MRC-5	visual reading	>1 µg/mL
Cc1ccccc1-n1ncc2c(NCCc3ccc(S(N)(=O)=O)cc3)ncnc21	HUH 9B		>50 µM
CC(C)Oc1ccccc1CNC(=O)c1ccc2cnccc2n1	MA-104		>12 µM
OC[C@H]1O[C@@H](n2ccc3c(-c4ccco4)nc(F)nc32)C(O)C1O	CCRF-CEM leukemia cells	MTT	2.22 µM
CCCCS(=O)(=O)Nc1ccc2[nH]c(C(=O)NCc3ccc(Cl)cc3)c(C)c2c1	VERO	resazurin	>110 µM
CC(C)CCN(c1ccc(N2CCOCC2)cc1)c1ncnc2ccc(I)cc12	HUH 9B		>25 µM
CC(C)(C)OC(=O)N(CCC(=O)Nc1ccc(-c2csc(N)n2)cc1)C1CCc2ccccc21	HS68		<9 µM
Cc1nc(N)nc2c1ccn2[C@@H]1O[C@H](CO)C(O)C1O	K562 leukemia cells	MTT	12.4 µM
CCCN(Cc1ccc(OCC(=O)O)cc1)C(=O)c1ccc(-c2ccc3c(c2)OCO3)cc1	HEK 293		>20 µM
CCCCS(=O)(=O)Nc1ccc2[nH]c(C(=O)N(C)Cc3ccccc3)c(C)c2c1	VERO	resazurin	120 µM
CCN(CC)C(=O)OCC1CN(C(=S)c2cc(OC)c(OC)c(OC)c2)CCN1C(=S)c1cc(OC)c(OC)c(OC)c1	MDM	neutral red	≥100 µM
COc1ccc2nc(Cl)c(/C=C/C(=O)c3cc(C)oc3C)cc2c1	VERO	MTS	>100 µM
O=C1NC(=O)/C(=C/c2ccc(-c3ccc(-c4cccnc4)cc3)cc2)S1	HepG2-NTCP	MTS	>10 µM

An empty or dashed field is not shown. Two numbers with a dash give a range or band. Lines come from different laboratories, so protocols vary.